Values from PubChem BioAssay AID624099 (ICCB-Longwood, 2012).

- Purpose: 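Host factors E2 relies on to silence an HPV18 LCR reporter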 (primary screen)
- Cell system: human C33A cervical carcinoma cells (HPV-negative) stably expressing BPV1 E2 and an HPV18 LCR luciferase reporter
- Reagent: siRNA pool against human genes, 40 nM
- Time to read-out: 72 h
- Read-out: 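Per-well luciferase luminescence, z-scored on each plate against the plate mean and SD with control wells left out, then averaged across three replicate plates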
- Reading the numbers: mean z-score and z-score: higher = stronger reporter signal, weaker E2 silencing
- Call rule: 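Mean z ≥ 2 together with z ≥ 2 in two or more of the three replicates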
The deposit covers about 21,000 reagents; shown is an unselected part. In the full data, 497 (2.4%) got an active call. 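Higher z means weaker E2 silencing; only reporter increases were scored, and knock-downs that hurt cell survival may mask genuine repressor factors.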

| mean z-score | z-score, replicate A | z-score, replicate B | z-score, replicate C | outcome | Gene | PubChem SID |
| --- | --- | --- | --- | --- | --- | --- |
| 0.26 | -0.05 | 0.47 | 0.35 | inactive | CORT (GeneID 1325) | SID134326895 |
| -2.11 | -2.36 | -2.17 | -1.81 | inactive | HUWE1 (GeneID 10075) | SID134312306 |
| 0.49 | 0.64 | 0.61 | 0.23 | inactive | ZNF169 (GeneID 169841) | SID134323107 |
| 0.33 | 0 | 0.16 | 0.82 | inactive | SLC2A4RG (GeneID 56731) | SID134322757 |
| 0.57 | 0.74 | 0.46 | 0.52 | inactive | SOX6 (GeneID 55553) | SID134319155 |
| -0.74 | -0.51 | -0.92 | -0.79 | inactive | RIN1 (GeneID 9610) | SID134323649 |
| -0.53 | -0.9 | -0.41 | -0.28 | inactive | CDH15 (GeneID 1013) | SID134309982 |
| -0.14 | -0.25 | -0.21 | 0.06 | inactive | NOG (GeneID 9241) | SID134316357 |
| 0.46 | 0.49 | 0.24 | 0.64 | inactive | CLIC5 (GeneID 53405) | SID134324253 |
| 1.28 | 1.41 | 1.08 | 1.34 | inactive | ISOC1 (GeneID 51015) | SID134324525 |
| 1.95 | 2.04 | 1.6 | 2.2 | inactive | NBAS (GeneID 51594) | SID134324610 |
| 0.44 | 0.37 | 0.67 | 0.27 | inactive | GPR22 (GeneID 2845) | SID134310999 |
| -1.43 | -1.59 | -1.55 | -1.17 | inactive | LOC122423 (retired record) (GeneID 122423) | SID134325270 |
| -0.64 | -0.47 | -0.77 | -0.67 | inactive | KCNJ1 (GeneID 3758) | SID134311657 |
| 0.28 | 0.21 | 0.22 | 0.4 | inactive | IL21R (GeneID 50615) | SID134312905 |
| 0.38 | 0.8 | 0.26 | 0.08 | inactive | OR4F4 (GeneID 26682) | SID134329839 |
| 0.01 | -0.09 | 0.3 | -0.16 | inactive | OSR2 (GeneID 116039) | SID134319234 |
| 0.5 | 0.4 | 0.57 | 0.55 | inactive | DYNC1LI1 (GeneID 51143) | SID134324662 |
| 0.42 | 0.38 | 0.46 | 0.43 | inactive | WNT9B (GeneID 7484) | SID134313459 |
| -0.23 | -0.06 | -0.05 | -0.57 | inactive | PLAAT1 (GeneID 57110) | SID134314862 |
| 0.51 | 0.19 | 0.69 | 0.65 | inactive | SALL2 (GeneID 6297) | SID134326797 |
| -1.32 | -1.34 | -1.43 | -1.19 | inactive | PIGU (GeneID 128869) | SID134321364 |
| -0.07 | -0.12 | -0.3 | 0.2 | inactive | GNRHR (GeneID 2798) | SID134310960 |
| -0.75 | -0.51 | -1.26 | -0.49 | inactive | LOC390625 (retired record) (GeneID 390625) | SID134328624 |
| 0.52 | 0.76 | 0.56 | 0.25 | inactive | KCNA10 (GeneID 3744) | SID134311629 |
| 3.2 | 3.8 | 3.67 | 2.14 | active | DYRK3 (GeneID 8444) | SID56478858 |
| 3.57 | 3.4 | 3.68 | 3.64 | active | MAP3K7CL (GeneID 56911) | SID134321803 |
| -0.08 | 0.06 | -0.02 | -0.29 | inactive | CYBB (GeneID 1536) | SID134315385 |

Next part (3 carried over from the part before).
| mean z-score | z-score, replicate A | z-score, replicate B | z-score, replicate C | outcome | Gene | PubChem SID |
| --- | --- | --- | --- | --- | --- | --- |
| 3.2 | 3.8 | 3.67 | 2.14 | active | DYRK3 (GeneID 8444) | SID56478858 |
| 3.57 | 3.4 | 3.68 | 3.64 | active | MAP3K7CL (GeneID 56911) | SID134321803 |
| -0.08 | 0.06 | -0.02 | -0.29 | inactive | CYBB (GeneID 1536) | SID134315385 |
| -0.43 | -0.84 | 0.1 | -0.55 | inactive | CLMB (GeneID 404550) | SID134329996 |
| 1.23 | 1 | 1.2 | 1.49 | inactive | PPFIA4 (GeneID 8497) | SID134325285 |
| 0.01 | 0.1 | -0.12 | 0.06 | inactive | LOC400852 (retired record) (GeneID 400852) | SID134329013 |
| -0.03 | -0.43 | -0.01 | 0.36 | inactive | BABAM1 (GeneID 29086) | SID134324353 |
| 0.02 | 0.02 | 0.18 | -0.15 | inactive | KCNK18 (GeneID 338567) | SID134313967 |
| -0.18 | -0.41 | 0.03 | -0.18 | inactive | B3GALT9 (GeneID 100288842) | SID134328136 |
| 1.12 | 1.54 | 0.74 | 1.06 | inactive | SLC20A1-DT (GeneID 400999) | SID134327129 |
| 0.07 | 0.28 | 0.03 | -0.1 | inactive | TAP1 (GeneID 6890) | SID134312679 |
| -0.63 | -0.94 | -0.63 | -0.31 | inactive | KRT6A (GeneID 3853) | SID134316411 |
| -0.55 | -0.36 | -0.58 | -0.7 | inactive | KRT6A (GeneID 3853) | SID134317262 |
| 0.27 | 0.8 | 0 | 0.01 | inactive | FAM186B (GeneID 84070) | SID134318887 |
| 0.87 | 0.38 | 0.89 | 1.35 | inactive | SULT1A1 (GeneID 6817) | SID134313830 |
| -0.07 | 0.13 | -0.19 | -0.16 | inactive | RBBP5 (GeneID 5929) | SID134316313 |
| 1.32 | 1.5 | 1.32 | 1.15 | inactive | PYCR1 (GeneID 5831) | SID134316626 |
| -0.6 | -0.41 | -0.6 | -0.81 | inactive | ANXA2R (GeneID 389289) | SID134327575 |
| 1.42 | 1.68 | 1.24 | 1.33 | inactive | SUMO1P1 (GeneID 391257) | SID134329030 |
| -0.64 | -0.89 | -0.4 | -0.63 | inactive | EMC3 (GeneID 55831) | SID134315207 |
| 0.32 | 0.42 | 0.52 | 0.01 | inactive | PEX16 (GeneID 9409) | SID134316256 |
| 1.76 | 2.19 | 1.65 | 1.44 | inactive | PITX2 (GeneID 5308) | SID134321256 |
| 1.71 | 1.8 | 1.76 | 1.56 | inactive | NCAPH2 (GeneID 29781) | SID134320188 |
| 1.1 | 1.41 | 1.06 | 0.82 | inactive | ASCL2 (GeneID 430) | SID134313910 |
| -0.12 | -0.18 | 0.1 | -0.28 | inactive | ZFYVE27 (GeneID 118813) | SID134320346 |
| 0.23 | 0.42 | 0.28 | -0.03 | inactive | MX2 (GeneID 4600) | SID134316055 |
| -0.05 | -0.01 | -0.32 | 0.17 | inactive | PARP8 (GeneID 79668) | SID134319808 |
| 0.32 | 0.24 | 0.6 | 0.13 | inactive | ARF4P3 (GeneID 390423) | SID134328424 |
| -0.85 | -0.87 | -0.79 | -0.9 | inactive | CATSPER1 (GeneID 117144) | SID134311550 |
| -1.27 | -1.23 | -1.23 | -1.33 | inactive | GPRC5D (GeneID 55507) | SID134311052 |
| -1.68 | -2.04 | -1.7 | -1.31 | inactive | MISP3 (GeneID 113230) | SID134328988 |
| -0.51 | -0.45 | -0.62 | -0.47 | inactive | NMNAT2 (GeneID 23057) | SID134313440 |
